Measured values taken from article PMC12817916, “A small-molecule HSP90 inhibitor, NVP-HSP990, alleviates rotavirus infection” (Journal of Virology, 2025).

System: Caco-2 cells
Test: RNA-seq analysis of host cell transcriptome
Format: cell-based, Human
Settings: 100 nM, 24 h
[1] = across all mock-, Wa-, and SA11-infected Caco-2 cells
[2] = in both Wa- and SA11-infected but not mock-infected Caco-2 cells

COc1cccc(-c2cc(F)ccc2[C@H]2Cc3nc(N)nc(C)c3C(=O)N2)n1 [NVP-HSP990]
number of genes downregulated [1]: 287 | number of genes upregulated [1]: 112 | number of genes downregulated [2]: 96 | number of genes upregulated [2]: 75
